A mixed list of measured activities; the numbers were collected in NIAID ChemDB.

Shared fields: whole-cell or culture tests; organism: HIV-1

ECn is the concentration giving n% inhibition of infection, replication or growth. Lines come from different laboratories, so protocols vary. Blank or dashed fields: not listed here.

SMILES | strain | read by | changes | cells | read-out | result
Nc1ccn([C@H]2CC[C@@H](CO)O2)c(=O)n1 | HXB2 | plaque count | RT-M184V | HT4 + HT4 LacZ-1 | EC50 | 0.77 µM
CC[C@H]1C(=O)Nc2ccc(F)cc2N1C(=O)OC(C)C | IIIB WT | cytopathic effect | - | CEM | EC50 | 0.0036 µM
Cc1cc(Br)cc(C)c1-n1nnnc1SCC(=O)Nc1ccccc1Cl | - | p24 | - | MT-4 | EC95 | <10 µM
N#Cc1ccc(Nc2nc(Oc3ccc(-c4ccc(C#N)cc4)cc3[N+](=O)[O-])c3sccc3n2)cc1 | IIIB | MTT | F227L V106A | MT-4 | EC50 | >40.9 µM
C1CNCCNCCCN(CCN2CCCNCCNCCCNCC2)CCNC1 | IIIB | cytopathic effect / MTT | - | MT-4 | EC50 | 18.6 µM
Cc1cn([C@H]2C[C@H](N=[N+]=[N-])[C@@H](CO)O2)c(=O)[nH]c1=O | GB8 | syncytia | - | JM | EC50 | >100 µM
O=c1[nH]cnc2c1ncn2[C@H]1CC[C@@H](CO)O1 | BCF06 | - | RT-A98G K103R | PBMC | EC50 | 0.9 µM
Cc1cn([C@H]2C[C@H](N=[N+]=[N-])[C@@H](CO)O2)c(=O)[nH]c1=O | NL4-3 | cytopathic effect / XTT | RT-K103N | CEM + CEM-SS | EC50 | 0.16 µM
O=S(=O)([O-])c1ccc([NH+]=C2C=CC(=C(c3ccc(Nc4ccc(S(=O)(=O)O)cc4)cc3)c3ccc(Nc4ccc(S(=O)(=O)O)cc4)cc3)C=C2)cc1 | RF | cytopathic effect / XTT | - | CEM + CEM-SS | EC50 | 20 µM
Cc1ccnc2c1NC(=O)c1cccnc1N2C1CC1 | IIIB | MTT | Y188L | MT-4 | EC50 | >15.9 µM
Cc1cc(C)c(-n2nnnc2SCC(=O)Nc2ccc(C)cc2Cl)c(C)c1 | - | p24 | - | MT-4 | EC95 | <10 µM
Cc1cn([C@H]2C[C@H](N=[N+]=[N-])[C@@H](CO)O2)c(=O)[nH]c1=O | IIIB | cytopathic effect | - | ATH8 | EC90 | <0.25 µg/mL
Cc1ccccc1CNC(=O)[C@H]1N(C[C@@H](O)C[C@@H](Cc2ccccc2)C(=O)N[C@H]2c3ccccc3OC[C@H]2O)CSC1(C)C | - | p24 | PR-V18C | MT-4 | EC50 | <1 µM
C1CNCCNCCCN(CCCN2CCCNCCNCCCNCC2)CCNC1 | HE | cytopathic effect / MTT | - | MT-4 | EC50 | 0.5 µM
CCC(C)Oc1nc(N)cc(Sc2cc(C)cc(C)c2)n1 | IIIB | cytopathic effect / MTT | - | MT-4 | EC50 | >117 µM
Cc1cc(C)c(-n2nnnc2SCC(=O)Nc2ccc(Cl)cn2)c(C)c1 | - | p24 | - | MT-4 | EC50 | <10 µM
Cc1cn([C@@H]2O[C@H](CO[Si](C)(C)C(C)(C)C)C3(OS(=O)(=O)C=C3N)[C@H]2O[Si](C)(C)C(C)(C)C)c(=O)n(C)c1=O | IIIB | cytopathic effect | - | CEM | EC50 | 0.04 µM
Nc1nc(=O)n([C@@H]2CS[C@H](CO)O2)cc1F | RTMC(181 184) (RT D67N K70R Y181C M184V T215F K219Q) | plaque count | RT-D67N K70R Y181C M184V T215F K219Q | HT4 + HT4 LacZ-1 | EC50 | >500 µM
Cc1ccnc2c1NC(=O)c1cccnc1N2C1CC1 | IIIB | MTT | - | MT-4 | EC50 | 0.118 µM
CC(=O)Nc1ccc(Cl)c(NC(=O)CSc2nnnn2-c2c(C)cc(C)cc2C)c1 | - | p24 | - | MT-4 | EC95 | <10 µM
Cc1ccnc2c1NC(=O)c1cccnc1N2C1CC1 | NL4-3 | cytopathic effect / XTT | RT-V108I | CEM + CEM-SS | EC50 | 0.06 µM
Cc1ccc(NC(=O)Nc2ccc(-c3ccc(NC(=O)Nc4ccc(-c5ccc(NC(=O)Nc6ccc(-c7ccc(NC(=O)Nc8ccc(-c9ccc(NC(=O)Nc%10ccc(-c%11ccc(NC(=O)Nc%12ccc(C)cc%12)cc%11S(=O)(=O)O)c(S(=O)(=O)O)c%10)cc9S(=O)(=O)O)c(S(=O)(=O)O)c8)cc7S(=O)(=O)O)c(S(=O)(=O)O)c6)cc5S(=O)(=O)O)c(S(=O)(=O)O)c4)cc3S(=O)(=O)O)c(S(=O)(=O)O)c2)cc1 | RF | p24 | - | MT-4 | EC50 | 1.58 µM
Cc1cn([C@H]2C[C@H](N=[N+]=[N-])[C@@H](CO)O2)c(=O)[nH]c1=O | IIIB | p24 | - | H9 | EC50 | 0.0804 µM
O=C(N[C@H]1c2ccccc2OC[C@H]1O)[C@H](Cc1cccnc1)C[C@H](O)CN1CCN(Cc2ccn(-c3cc(Cl)c(Cl)c(Cl)c3)c2)C[C@H]1C(=O)NCC(F)(F)F | V-18C Clinical isolate | p24 | PR-L10I M36I N37D M46I R57K L63P A71V G73S I84V L90M I93L | MT-4 | EC50 | <0.015 µM
C#Cc1ccc(Nc2nccc(Oc3c(C)cc(-c4cn(CCCC(=O)OC)nn4)cc3C)n2)cc1 | IIIB | MTT | K103N | MT-4 | EC50 | 0.79 µM
CCC(C)Oc1cc(N)nc(Sc2ccc(OC)cc2)n1 | IIIB | cytopathic effect / MTT | - | MT-4 | EC50 | >300 µM
Cc1cc(-c2ccc(C#N)cc2)cc(C)c1Oc1nc(Nc2ccc(C#N)cc2)nc2ccsc12 | IIIB | MTT | - | MT-4 | EC50 | 0.038 µM
Cc1cc(C)c(-n2nnnc2SCC(=O)Nc2cc(F)ccc2F)c(C)c1 | - | p24 | - | MT-4 | EC50 | <10 µM
C#Cc1ccc(Nc2nccc(Oc3c(C)cc(-c4cn(-c5cccc(C(=O)OC)c5)nn4)cc3C)n2)cc1 | IIIB | MTT | F227L and V106A | MT-4 | EC50 | ≥180 µM
CC(C)c1ccccc1-n1nnnc1SCC(=O)Nc1ccccc1[N+](=O)[O-] | - | p24 | - | MT-4 | EC50 | <10 µM
S=C(NCCc1cccs1)Nc1ccc(Br)cn1 | T155-3 Clinical isolate NRTI-resistant | p24 | RT-M41L E44D D67N T69D L210W T215Y | PBMC | EC50 | 0.0035 µM
C#Cc1ccc(Nc2nccc(Oc3c(C)cc(-c4cn(-c5ccc(C(=O)OC)cc5)nn4)cc3C)n2)cc1 | RES056 | MTT | - | MT-4 | EC50 | >242 µM
Cc1ccccc1Cc1cccc(C(=O)CC(=O)C(=O)O)c1 | - | p24 | - | - | EC50 | 0.2 µM
CC[C@]1(c2ccccc2)Oc2cccnc2-n2cccc2C1=O | - | p24 | - | Macrophage | EC50 | 0.57 µM
C#Cc1ccc(Nc2nccc(Oc3c(C)cc(-c4cn(CC(=O)OC)nn4)cc3C)n2)cc1 | IIIB | MTT | E138K | MT-4 | EC50 | >10.35 µM
Cc1cn([C@H]2C[C@H](N=[N+]=[N-])[C@@H](CO)O2)c(=O)[nH]c1=O | IIIB WT | cytopathic effect | - | CEM | EC50 | 0.003 µM
Cc1ccc(-n2nnnc2SCC(=O)Nc2ccc(C)c([N+](=O)[O-])c2)cc1 | - | p24 | - | MT-4 | EC95 | <10 µM
N#Cc1ccccc1-n1ccc(CN2CCN(C[C@@H](O)C[C@@H](Cc3cccnc3)C(=O)N[C@H]3c4ccccc4OC[C@H]3O)[C@H](C(=O)NCC(F)(F)F)C2)c1 | Q-60C Clinical isolate | p24 | PR-L10I N37S R41K M46I I54V I62V L63P A71V V77I V82A L90M I93L | MT-4 | EC50 | <0.062 µM
Cc1ccnc2c1NC(=O)c1cccnc1N2C1CC1 | Clinical isolate wild type | RT activity | - | PBMC | EC50 | 0.09 µM
O=C(N[C@H]1c2ccccc2OC[C@H]1O)[C@H](Cc1cccnc1)C[C@H](O)CN1CCN(Cc2ccn(-c3ccccc3C(F)(F)F)c2)C[C@H]1C(=O)NCC(F)(F)F | Q-60C Clinical isolate | p24 | PR-L10I N37S R41K M46I I54V I62V L63P A71V V77I V82A L90M I93L | MT-4 | EC50 | <0.5 µM
CC(=O)Oc1ccc(/C=C/C(=O)O[C@H](C(=O)O)[C@H](OC(=O)/C=C/c2ccc(OC(C)=O)c(OC(C)=O)c2)C(=O)O)cc1OC(C)=O | NL4-3 | - | Dextran sulfate-resistant | MT-4 | EC50 | >93 µM
Cc1cn([C@H]2C[C@H](N=[N+]=[N-])[C@@H](CO)O2)c(=O)[nH]c1=O | RUD (RT-A98G) | - | RT-A98G | PBMC | EC50 | <0.01 µM
CN[C@@H]1[C@H](O[C@@H]2OC[C@@H](O)[C@H](O)[C@H]2O)[C@@H](O)[C@H](O[C@H]2c3cc(C)c(C(=O)N[C@H](C)C(=O)O)c(O)c3-c3c(cc4c(c3O)C(=O)c3cc(OC)cc(O)c3C4=O)[C@@H]2O)O[C@@H]1C | - | syncytia / cell fusion | - | HUT-78/SUP T1 | EC50 | 3.4 µg/mL
Cc1cc(C)c(-n2nnnc2SCC(=O)Nc2cccnc2Cl)c(C)c1 | - | p24 | - | MT-4 | EC50 | <10 µM
O=C(NCc1ccc(F)cc1)c1nc(N2CCCCS2(=O)=O)c2cccnc2c1O | - | p24 | INTG-S153Y N155S | - | EC50 | 0.088 µM
C#Cc1ccc(Nc2nccc(Oc3c(C)cc(-c4cn(Cc5cccc(C(=O)OC)c5)nn4)cc3C)n2)cc1 | IIIB | MTT | E138K | MT-4 | EC50 | 0.96 µM
CCC(C)Oc1cc(N)nc(Sc2ccc(Cl)cc2N)n1 | IIIB | cytopathic effect / MTT | - | MT-4 | EC50 | >88 µM
C#Cc1ccc(Nc2nccc(Oc3c(C)cc(-c4cn(Cc5cccc([N+](=O)[O-])c5)nn4)cc3C)n2)cc1 | IIIB | MTT | - | MT-4 | EC50 | 0.075 µM
CC(C)(C)NC(=O)[C@@H]1C[C@@H]2CCCC[C@@H]2CN1C[C@@H](O)[C@H](Cc1ccccc1)NC(=O)[C@H](CC(N)=O)NC(=O)c1ccc2ccccc2n1 | VAU (PR-L10I K20C M36I L63A I64V A71V) | - | PR-L10I K20C M36I L63A I64V A71V | PBMC | EC50 | 0.013 µM
O=c1[nH]cnc2c1ncn2[C@H]1CC[C@@H](CO)O1 | HXB2D (RT-K65R) | p24 | RT-K65R | CBMC | EC50 | 22.7 ± 0.9 µM
CO[P@](=O)(c1cc(C)cc(/C=C/C#N)c1)c1c(C(N)=O)[nH]c2ccc(Cl)c(F)c12 | BH10 | - | K103N | MT-4 | EC50 | 0.00026 µM
CCCN(C)C(=O)Oc1nsnc1-c1c(Cl)ccc(N)c1Cl | IIIB | MTT | RT-K103N | MAGI | EC50 | 0.045 µM
O=c1[nH]cnc2c1ncn2[C@H]1CC[C@@H](CO)O1 | IIIB BCH-189-resistant (RT M184V) | p24 | RT-M184V | MT-4 | EC50 | 70 µM
CCC(C)Oc1cc(=O)[nH]c(S(=O)(=O)c2cccc(Cl)c2)n1 | IIIB | cytopathic effect / MTT | - | MT-4 | EC50 | >104 µM
c1cc(CN2CCCNCCNCCCNCC2)ccc1CN1CCCNCCNCCCNCC1 | JR-FL R5 | antigen | - | PBMC | EC50 | >25 µg/mL
CC(C)CCC[C@@H](C)[C@H]1CC[C@H]2[C@@H]3CC[C@H]4C[C@@H](CCC=C(c5cc(Cl)c(O)c(C(=O)O)c5)c5cc(Cl)c(O)c(C(=O)O)c5)CC[C@]4(C)[C@H]3CC[C@]12C | RF | p24 / RT activity | - | CEM + CEM-SS | EC50 | 5.1 µM
O=C(N[C@H]1c2ccccc2OC[C@H]1O)[C@H](Cc1cccnc1)C[C@H](O)CN1CCN(Cc2ccn(-c3ccc(C(F)(F)F)cc3)c2)C[C@H]1C(=O)NCC(F)(F)F | Q-60C Clinical isolate | p24 | PR-L10I N37S R41K M46I I54V I62V L63P A71V V77I V82A L90M I93L | MT-4 | EC95 | ≤0.008 µM
Cc1cn([C@H]2C[C@H](N=[N+]=[N-])[C@@H](CO)O2)c(=O)[nH]c1=O | G | cytopathic effect / XTT | - | CEM + CEM-SS | EC50 | 0.0036 µM
C#Cc1ccc(Nc2nccc(Oc3c(C)cc(-c4cn(Cc5ccccc5)nn4)cc3C)n2)cc1 | IIIB | MTT | Y188L | MT-4 | EC50 | >8.55 µM
CCC(C)Oc1cc(N)nc(Sc2cccc(C)c2)n1 | IIIB | cytopathic effect / MTT | - | MT-4 | EC50 | 26 µM
Cc1cn([C@H]2C[C@H](N=[N+]=[N-])[C@@H](CO)O2)c(=O)[nH]c1=O | HXB2D (RT-K65R) | p24 | RT-K65R | MT-4 | EC50 | 0.011 µM
c1cc(CN2CCCNCCNCCCNCC2)ccc1CN1CCCNCCNCCCNCC1 | SW26 CLADE C R5 | p24 | - | PBMC | EC50 | >0.5 µM

Repeating the final 6 entries:

SMILES,strain,read by,changes,cells,read-out,result
O=C(N[C@H]1c2ccccc2OC[C@H]1O)[C@H](Cc1cccnc1)C[C@H](O)CN1CCN(Cc2ccn(-c3ccc(C(F)(F)F)cc3)c2)C[C@H]1C(=O)NCC(F)(F)F,Q-60C Clinical isolate,p24,PR-L10I N37S R41K M46I I54V I62V L63P A71V V77I V82A L90M I93L,MT-4,EC95,≤0.008 µM
Cc1cn([C@H]2C[C@H](N=[N+]=[N-])[C@@H](CO)O2)c(=O)[nH]c1=O,G,cytopathic effect / XTT,-,CEM + CEM-SS,EC50,0.0036 µM
C#Cc1ccc(Nc2nccc(Oc3c(C)cc(-c4cn(Cc5ccccc5)nn4)cc3C)n2)cc1,IIIB,MTT,Y188L,MT-4,EC50,>8.55 µM
CCC(C)Oc1cc(N)nc(Sc2cccc(C)c2)n1,IIIB,cytopathic effect / MTT,-,MT-4,EC50,26 µM
Cc1cn([C@H]2C[C@H](N=[N+]=[N-])[C@@H](CO)O2)c(=O)[nH]c1=O,HXB2D (RT-K65R),p24,RT-K65R,MT-4,EC50,0.011 µM
c1cc(CN2CCCNCCNCCCNCC2)ccc1CN1CCCNCCNCCCNCC1,SW26 CLADE C R5,p24,-,PBMC,EC50,>0.5 µM